Measured values from several laboratories, pooled; numbers as filed in NIAID ChemDB.

Shared fields: tests in culture; agent: HIV-1; read by: RT activity; endpoint: EC50

An empty or dashed field is not shown.

structure | cells | strain or isolate | conditions | mutations | value
Cc1cn([C@H]2C[C@H](N=[N+]=[N-])[C@@H](CO)O2)c(=O)[nH]c1=O | PBL (resting) + PBL | BZ X4 | - | - | >4 µM
O=C1CCCN2C3[C@@]45CN6CCCC/C=C/CC[C@@]3(C=C(c3nccc7c3[nH]c3ccccc37)[C@@H]4CC6)O[C@]2(CC1)C5 | PBMC | LAV | - | - | 0.59 µM
Cc1cn([C@H]2C[C@H](N=[N+]=[N-])[C@@H](CO)O2)c(=O)[nH]c1=O | CEM + CEM-SS | N119 nevirapine-resistant (RT Y181C) | - | RT-Y181C | 0.004 µM
CC(C)Nc1cccnc1N1CCN(C(=O)c2cc3cc(NS(C)(=O)=O)ccc3[nH]2)CC1 | PBMC | Clinical isolate wild type | - | - | 0.04 µM
Cc1cn([C@H]2C[C@H](N=[N+]=[N-])[C@@H](CO)O2)c(=O)[nH]c1=O | CBMC | HxB2D(RT-D67G) | - | RT-D67G | 0.0021 µM
Nc1ncnc2c1ncn2[C@@H]1C[C@@H](N)[C@H](CO)O1 | PBMC | LAI | - | - | >10 µM
Cc1cnc(CC2=C[C@@]3(O)CC/C=C\CCCCN4CC[C@@H]2[C@]2(C[C@@H]5CCCCCCN5C23)C4)cn1 | PBMC | LAV | - | - | 13.2 µM
CC(C)(C)NC(=O)[C@@H]1C[C@@H]2CCCC[C@@H]2CN1C[C@@H](O)[C@H](Cc1ccccc1)NC(=O)[C@H](CC(N)=O)NC(=O)c1ccc2ccccc2n1 | MT-2 | HII2-1 | - | - | 0.02 µM
CC(C)CN(C[C@@H](O)[C@H](Cc1ccccc1)NC(=O)[C@H](CC(N)=O)NC(=O)c1ccc2ccccc2n1)C(=O)NC(C)(C)C | CEM | - | - | - | <0.08 µg/mL
Cc1cn([C@H]2C[C@H](N=[N+]=[N-])[C@@H](CO)O2)c(=O)[nH]c1=O | MT-2 | 4246 Clinical isolate | - | - | 0.001 µM
Nc1nc(=O)n([C@H]2CO[C@@H](CO)S2)cc1F | CBMC | 4242 (RT-M41L K70R T215Y) | - | RT-M41L K70R T215Y | 0.25 µM
CC[C@]1(c2ccccc2)Oc2cccnc2-n2cccc2C1=O | PBMC | Clinical isolate wild type | - | - | 0.04 µM
Cc1c(O)cccc1C(=O)N[C@@H](CSc1ccccc1)[C@H](O)CN1C[C@H]2CCCC[C@H]2C[C@H]1C(=O)NC(C)(C)C | PBMC | 1026-40 PI-resistant | - | PR-L10I M46I I54V L63P A71V V82A L90M | 0.335 µM
CC[C@H]1OC(=O)[C@H](C)[C@@H](O[C@H]2C[C@@](C)(OC)[C@@H](O)[C@H](C)O2)[C@H](C)[C@@H](O[C@@H]2O[C@H](C)C[C@H](N(C)C)[C@H]2O)[C@](C)(O)C[C@@H](C)/C(=N\OCOCCOC)[C@H](C)[C@@H](O)[C@]1(C)O | PBMC | LAV | - | - | <1000 µM
Nc1ncnc2c1ncn2[C@@H]1C[C@@H](F)[C@H](CO)O1 | PBMC | LAI | - | - | >100 µM
Cc1cccc(C)c1OCC(=O)N[C@@H](Cc1ccccc1)[C@@H](O)C[C@H](Cc1ccccc1)NC(=O)[C@H](C(C)C)N1CCCNC1=O | PBMC | IIIB | - | - | 0.0013 µM
Nc1nc(=O)n([C@@H]2CC[C@H](CO)O2)cc1F | CEM + CEM TK- | LAI | - | - | 0.07 µM
Cc1cn([C@@H]2C[C@@H](N=[N+]=[N-])[C@H](CO)O2)c(=O)[nH]c1=O | PBMC | LAV | - | - | >100 µM
Nc1nc2c(ncn2[C@H]2CO[C@@H](CO)O2)c(=O)[nH]1 | CBMC | IIIB | - | - | 0.046 µM
COc1ccc(C[C@H](NC(=O)c2cccc(O)c2C)[C@H](O)C(=O)N2CSC(C)(C)[C@H]2C(=O)NCc2ccccc2C)cc1 | PBMC | IIIB | - | - | 0.0066 µM
COC(=O)C(C)CNP(=O)(OC[C@@H]1CC[C@H](n2cc(C)c(=O)[nH]c2=O)O1)Oc1ccc([N+](=O)[O-])cc1 | CEM(TK-) + CEM TK- | - | - | - | 22.6 µM
COc1cccc(C[C@H](NC(=O)c2cccc(O)c2C)[C@H](O)C(=O)N2CSC(C)(C)[C@H]2C(=O)NCc2c(C)cccc2C)c1 | PBMC | 052-52 PI-resistant | - | PR-L10R M46I L63P A71V V82T I84V | <0.001 µM
CCN(CC)C(=O)OCC1CN(C(=O)c2cc(OC)c(OC)c(OC)c2)CCN1C(=O)c1cc(OC)c(OC)c(OC)c1 | PBL | BaL | - | - | 5 µM
CC(C)CN(C[C@@H](O)[C@H](Cc1ccccc1)NC(=O)O[C@H]1CCOC1)S(=O)(=O)c1ccc(N)cc1 | PBMC | 1026-40 PI-resistant | - | PR-L10I M46I I54V L63P A71V V82A L90M | 0.752 µM
O=c1[nH]cnc2c1ncn2[C@H]1CC[C@@H](CO)O1 | PBL (activated) + PBL | BZ X4 | - | - | 9 µM
Cc1cn([C@H]2CC[C@@H](CO)O2)c(=O)[nH]c1=O | PBMC | LAV | - | - | 0.17 µM
[B-]P(=O)(OC[C@H]1O[C@H](n2cc(C)c(=O)[nH]c2=O)C[C@@H]1N=[N+]=[N-])OP(=O)(O)O[C@H]1O[C@H](CO)[C@@H](O)[C@H](O)[C@H]1O | PBMC (PHA stimulated) + PBMC | LAI | - | - | 0.075 µM
Nc1nc(=O)n([C@@H]2C[C@@H](O)[C@H](CO)O2)cc1Cl | PBMC | LAI | - | - | >100 µM
Cc1cn([C@@H]2C=C[C@H](CO)O2)c(=O)[nH]c1=O | PBMC | LAV | - | - | >100 µM
Cc1cn([C@@H]2C[C@@H](F)[C@H](CO)O2)c(=O)[nH]c1=O | PBMC | LAI | - | - | >100 µM
COC(=O)C(C)CNP(=O)(OC[C@@H]1CC[C@H](n2cc(C)c(=O)[nH]c2=O)O1)Oc1ccc(F)cc1 | CEM(TK-) + CEM TK- | - | - | - | 32.7 µM
CC(C)(C)C(=O)SCCOP(=O)(OCCSC(=O)C(C)(C)C)OC[C@H]1CC[C@@H](n2cnc3c(N)ncnc32)O1 | PBMC | LAI | - | - | 0.002 µM
Nc1nc(N)c2ncn([C@H]3CO[C@@H](CO)O3)c2n1 | H9 | IIIB | - | - | 0.075 µM
Cc1cn([C@@H]2CC[C@H](CO)O2)c(=O)[nH]c1=O | PBMC | LAV | - | - | >10 µM
Cc1cn([C@H]2CC[C@@H](CO)O2)c(=O)[nH]c1=O | PBMC | - | - | - | 0.7 µM
Nc1nc(=O)n([C@@H]2CO[C@H](CO)S2)cc1F | MT-4 | HxB2D(RT-D67G) | - | RT-D67G | 30 µM
Cc1cn([C@H]2C=C[C@@H](CO)O2)c(=O)[nH]c1=O | PBMC | LAV | - | - | 0.009 µM
Cc1cn([C@@H]2C[C@@H](N)[C@H](CO)O2)c(=O)[nH]c1=O | PBMC | LAI | - | - | >10 µM
Cc1ccccc1CNC(=O)[C@H]1N(C(=O)[C@@H](O)[C@H](Cc2ccccc2)NC(=O)c2cccc(O)c2C)CSC1(C)C | PBMC | 052-52 PI-resistant | - | PR-L10R M46I L63P A71V V82T I84V | 0.017 µM
Nc1nc(=O)n([C@@H]2CC[C@H](CO)O2)cc1Cl | PBMC | LAI | - | - | >100 µM
Cc1ccnc2c1NC(=O)c1cccnc1N2C1CC1 | - | - | pseudotyped | V106A | >10 µM
Cc1cn([C@H]2C[C@H](N=[N+]=[N-])[C@@H](CO)O2)c(=O)[nH]c1=O | CEM + CEM TK- | LAI | - | - | >100 µM
COC(=O)C(C)CNP(=O)(OC[C@@H]1CC[C@H](n2cc(C)c(=O)[nH]c2=O)O1)Oc1ccc(Br)cc1 | CEM(TK-) + CEM TK- | - | - | - | 22.8 µM
Cc1cc(C)cc(C(=O)c2cc(Cl)ccc2OCCN2CCC(=O)NC2=O)c1 | - | - | pseudotyped | - | 0.08 µM

Repeating the final 3 entries:

| structure | cells | strain or isolate | conditions | mutations | value |
|---|---|---|---|---|---|
| Cc1cn([C@H]2C[C@H](N=[N+]=[N-])[C@@H](CO)O2)c(=O)[nH]c1=O | CEM + CEM TK- | LAI | - | - | >100 µM |
| COC(=O)C(C)CNP(=O)(OC[C@@H]1CC[C@H](n2cc(C)c(=O)[nH]c2=O)O1)Oc1ccc(Br)cc1 | CEM(TK-) + CEM TK- | - | - | - | 22.8 µM |
| Cc1cc(C)cc(C(=O)c2cc(Cl)ccc2OCCN2CCC(=O)NC2=O)c1 | - | - | pseudotyped | - | 0.08 µM |

Rows are shuffled and stem from different studies. ECn is the concentration giving n% inhibition of infection, replication or growth.